# Data source: PubChem BioAssay AID624099 (ICCB-Longwood, 2012)
# Purpose: 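Host factors E2 relies on to silence an HPV18 LCR reporter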 (primary screen)
# Cell system: human C33A cervical carcinoma cells (HPV-negative) stably expressing BPV1 E2 and an HPV18 LCR luciferase reporter
# Reagent: siRNA pool against human genes, 40 nM
# Duration: 72 h
# Detection: 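HPV18 LCR reporter light per well, converted to plate-wise z-scores that exclude control wells, and averaged over triplicate plates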
# Scale: mean z-score and z-score: higher = stronger reporter signal, weaker E2 silencing
# Rule for the call: 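Mean z ≥ 2 together with z ≥ 2 in two or more of the three replicates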
# Here is a random part of about 21,000 reagents. 497 of all reagents (2.4%) count as active. 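Higher z means weaker E2 silencing; only reporter increases were scored, and knock-downs that hurt cell survival may mask genuine repressor factors.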 Entries without a mark were called inactive.
The first 7 entries, ahead of the listing:
target,mean z-score,"z-score, replicate A","z-score, replicate B","z-score, replicate C"
MAP2K1,-0.48,-0.39,-0.41,-0.64
S100PBP,-0.19,0.06,-0.54,-0.09
URGCP,0.03,-0.2,-0.07,0.36
INIP,1.44,1.33,1.74,1.24
ASAH1,0.02,0.08,0.23,-0.26
LIMD1,0.4,0.75,-0.06,0.52
EPS8L1,0.42,0.15,0.34,0.78

The list itself, from the first entry:
target,mean z-score,"z-score, replicate A","z-score, replicate B","z-score, replicate C"
MAP2K1,-0.48,-0.39,-0.41,-0.64
S100PBP,-0.19,0.06,-0.54,-0.09
URGCP,0.03,-0.2,-0.07,0.36
INIP,1.44,1.33,1.74,1.24
ASAH1,0.02,0.08,0.23,-0.26
LIMD1,0.4,0.75,-0.06,0.52
EPS8L1,0.42,0.15,0.34,0.78
ZNF281,-0.4,-0.36,-0.77,-0.05
F8A1,0.07,-0.04,0.04,0.2
ATP5F1B,-0.94,-0.86,-0.93,-1.04
TMEM68,-0.39,-0.47,-0.02,-0.68
LOC388616 (retired record),0.63,0.72,0.41,0.76
SLC25A13,0.33,0.59,0.12,0.27
UBE2J2,0.28,0.13,0.49,0.24
AMACR,0.31,0.26,0.45,0.21
FLJ40194,0.31,0.29,0.31,0.33
LRRC45,-1.56,-1.48,-1.67,-1.54
TSC2,-0.01,0.39,-0.38,-0.04
PRDM2,-0.88,-1,-0.61,-1.03
SPCS3,0.07,0.09,-0.26,0.39
AKR7A3,-0.04,0,-0.09,-0.04
LGALS16,-0.27,-0.62,-0.11,-0.07
LOC388295 (retired record),0.67,0.62,0.55,0.84
MCF2L,0.58,0.65,0.6,0.47
LOC389413 (retired record),-0.45,-0.28,-0.57,-0.51
PRORP,1.51,1.39,1.49,1.63
ZNF546,-0.09,-0.04,-0.09,-0.14
POGZ,0.39,0.57,0.12,0.47
NOL4L,-0.68,-0.56,-0.95,-0.55
CDRT15L2,-0.07,0.18,-0.51,0.11
DFFB,1.31,1.35,1.48,1.09
LOC400763 (retired record),-0.58,-0.61,-0.44,-0.68
PAWR,1.79,1.87,1.98,1.53
GPRIN2,1.64,1.32,1.71,1.91
NFATC2IP,-2.03,-2.34,-1.67,-2.09
ZNF581,-0.69,-0.44,-0.97,-0.66
CCT2,1,1.01,0.66,1.33
LOC400965 (retired record),1,0.94,0.89,1.17
ZNF484,0.51,0.48,0.55,0.51
LOC399768 (retired record),-0.16,-0.45,-0.05,0.01
ZNF252P,-1.03,-0.93,-1.13,-1.02
AKR1B1,0.69,0.55,0.92,0.59
GRK7,-1,-1.29,-0.89,-0.81
NGRN,2.72 (active),3.47,1.92,2.78
RPH3AL,-1.91,-1.28,-2.2,-2.25
NSUN6,3 (active),3.51,3,2.49
ACADVL,0.48,0.85,0.42,0.17
ZBTB44,-1.1,-1.16,-1.29,-0.86
AATF,-0.7,-0.47,-0.91,-0.73
ANKAR,0.08,-0.03,0.04,0.23
ODF2L,-0.83,-0.92,-0.75,-0.82
OPCML,0.52,0.79,0.37,0.4
MLLT3,-0.2,0.09,-0.27,-0.41
GNRH1,-0.81,-0.8,-0.78,-0.84
NECTIN2,2.66 (active),2.46,2.73,2.78
GPR35,2.11 (active),2.08,2.12,2.12
SIDT2,-0.46,-0.63,0.07,-0.82
